Here are results for seven substances from article PMC7897990, “TriTOX: A novel Trichomonas vaginalis assay platform for high-throughput screening of compound libraries” (International Journal for Parasitology: Drugs and Drug …, 2021).

This data set concerns nontumorigenic neonatal foreskin fibroblast (NFF) cell line.
The mark [1] stands for this setting: NFF fibroblasts, single concentration 5 µg/mL.

Where two headings read alike, the source gives them in different places.

Mithramycin A: under setting [1], the NFF_Activity entry is “I (otherwise these were reported as inactive (I))”.

As to Elaiophylin, the NFF_Activity entry (NFF_NS1 screen at 5 µg/mL) is on record as “A (active (A) compounds having >25% inhibitory activity)”.

With Enniatin A, the NFF_Activity result (NFF_NS1 screen at 5 µg/mL) is “I (otherwise these were reported as inactive (I))”.

As to Pyripyropene A, the NFF_Activity result under setting [1] was “I (otherwise these were reported as inactive (I))”.

As to Enniatin A1, under “NFF_NS1 screen at 5 µg/mL”, the NFF_Activity result is “I (otherwise these were reported as inactive (I))”.

With Penitrem A, the NFF_Activity result under setting [1] is “I (otherwise these were reported as inactive (I))”.

Take Oligomycin A: the NFF_Activity entry is “I (key: active (A) compounds having >25% inhibitory activity; otherwise these were reported as inactive (I))”.
